Compound potency records, mixed from different reports. Data source: NIAID ChemDB in PubChem.

Common to all: growth or infection tests; agent: Varicella zoster virus; method: plaque count; endpoint: EC50

ECn: concentration that inhibits the pathogen or its effect by n%. Conditions beyond the fields shown may differ between rows. An empty or dashed field is not shown.

structure,cells,strain or isolate,result
CCCCCCCc1cc2cnc(=O)[nH]c2o1,HEL,07/1,>80 µM
CCCCCCc1cc2cn([C@H]3C[C@H](O)[C@@H](CO)O3)c(=O)nc2[nH]1,HEL,OKA,>50 µM
CCCCCCCCC#Cc1c[nH]c(=O)[nH]c1=O,HEL,07/1,16 µM
OC[C@H]1O[C@@H](c2ccccc2)[C@H](O)[C@@H]1O,HEL,OKA,>50 µg/mL
CC#Cc1cn([C@@H]2O[C@H](CO)[C@@H](O)[C@@H]2O)c(=O)[nH]c1=O,HEL,YS (TK+),0.34 µM
COc1ccc2c(c1)OC1(C=C2)N(C)c2ccccc2C1(C)C,HEL,07/1 (TK-),5.5 µM
CCCCCCC#Cc1cn(S(=O)(=O)c2ccc(C)cc2)c(=O)[nH]c1=O,HEL,07/1,>16 µM
Nc1nc(=O)n([C@@H]2O[C@H](CO)[C@@H](O)[C@@H]2F)cc1I,HEL,13 isolates,0.13 µM
CC(O)c1cn([C@@H]2O[C@H](CO)[C@@H](O)[C@@H]2O)c(=S)[nH]c1=O,MRC-5,HOSEN (TK+),>249.5 µM
CC1(C)[C@H](CCO)C[C@@H]1n1nnc2c(=O)[nH]cnc21,,07/1 (TK-),>50 µg/mL
Cc1cc([C@H]2C[C@H](O)[C@@H](CO)O2)c(Cl)cc1F,HEL,(TK+)/OKA,>200 µM
Cc1c(Br)cc(Br)c2ncc(CSCc3ccc(Cl)cc3Cl)n12,HEL,OKA (TK+),9 µg/mL
CCCCOC[C@H]1O[C@@H]2CC(C)(C)C[C@@H]2[C@H]1OCCCC,HEL,OKA,>80 µg/mL
Nc1ccn(C[C@@H](CO)OCP(=O)(O)O)c(=O)n1,HFF,,1.8 µM
CO[C@H]1[C@H]2O[Si](C(C)C)(C(C)C)O[Si](C(C)C)(C(C)C)OC[C@@H]2O[C@@H]1c1ccccc1,HEL,OKA,>2 µg/mL
O=c1[nH]c(=O)n([C@H]2C[C@H](O)[C@@H](CO)O2)cc1/C=C/Br,HEL,YS/R (TK-),114.7 µM
Nc1nc2c(ncn2COCCO)c(=O)[nH]1,HFF,,14 µM
CCCCCCCCCCc1cc2cn([C@H]3C[C@H](O)[C@@H](CO)O3)c(=O)nc2o1,HEL,OKA,0.02 µM
O=c1[nH]c(=O)n([C@@H]2O[C@H](CO)[C@@H](O)[C@@H]2O)cc1/C=C/Br,HEL,OKA (TK+),0.000074 µM
O=C(NCc1ccc(Cl)cc1)c1c[nH]c2ccc(CCCO)cc2c1=O,,Webster,0.17 µM
COc1cc(F)c([C@H]2C[C@H](O)[C@@H](CO)O2)cc1[N+](=O)[O-],HEL,(TK-)/YS/R,>200 µM
CN1c2ccccc2C(C)(C)C12C=Nc1c(ccc3ccccc13)O2,HEL,YS (TK+),4.7 µM
COC(=O)/C=C1/[C@@H](O[Si](C)(C)C(C)(C)C)[C@H](n2cc(C)c(=O)[nH]c2=O)O[C@@H]1CO[Si](C)(C)C(C)(C)C,MRC-5,,4.4 µM
CCCCCC#Cc1c[nH]c(=O)[nH]c1=O,HEL,07/1,>80 µM
Cc1cccn2c(CSCc3ccccc3)cnc12,HEL,YS/R (TK-),>1 µg/mL
Nc1nc(=O)n([C@H]2C[C@H](O)[C@@H](CO)O2)cc1/C=C/Cl,HEL,13 isolates,0.028 µM
Cn1cc(C(=O)NCc2ccc(Cl)cc2)c(=O)c2cc(CN3CCOCC3)ccc21,HFF,RA varicella isolate,0.3 µM
CCCCCCCC#Cc1cn(S(=O)(=O)c2ccc(C)cc2)c(=O)[nH]c1=O,HEL,OKA,>16 µM
Nc1ncnc2c1ncn2C[C@@H](CO)OCP(=O)(O)O,HEL,YS (TK+),0.11 µM
Cc1c(Br)cc(Br)c2ncc(CSCc3ccccc3)n12,HEL,YS/R (TK-),>20 µg/mL
Nc1nc2c(ncn2COCCO)c(=O)[nH]1,,YS (TK+),0.28 µg/mL
CCCCCOCCCCc1cc2cn([C@H]3C[C@H](O)[C@@H](CO)O3)c(=O)nc2o1,HEL,OKA,0.5 µM
NC1=NS(=O)(=O)N(Cc2ccccc2)c2nc[nH]c21,HEL,YS,>50 µg/mL
CCCCCCCCCCc1cc2cn([C@H]3C[C@H](O)[C@@H](CO)O3)c(=O)nc2o1,HEL,OKA,0.015 µM
CC1(C)[C@H](CCO)C[C@@H]1n1cnc2c(Cl)ncnc21,,YS/R (TK-),>50 µg/mL
CCCCCCCCc1cc2cn([C@H]3C[C@H](O)[C@@H](CO)O3)c(=O)nc2[nH]1,HEL,YS,0.48 µM
OC[C@H]1O[C@H](c2cc(Br)c(F)cc2F)C[C@@H]1O,HEL,(TK-)/YS/R,>200 µM
CCc1cn([C@H]2C[C@H](O)[C@@H](CO)O2)c(=S)nc1N,MRC-5,Kanno-Kohmura (TK-),>288.6 µM
CN1c2ccc(Cl)cc2C(C)(C)C12C=Nc1c(ccc3ccccc13)O2,HEL,OKA (TK+),>8.8 µM
CCCOCCOCCCc1cc2cn([C@H]3C[C@H](O)[C@@H](CO)O3)c(=O)nc2o1,HEL,07/1 (TK-),>200 µM
COc1ccc(CSCc2cnc3c(Br)cc(Br)c(C)n23)cc1,HEL,OKA (TK+),>5 µg/mL
CN1c2ccc(Cl)cc2C(C)(C)C12C=Cc1cc([N+](=O)[O-])ccc1O2,HEL,07/1 (TK-),1.7 µM
C=Cc1cn([C@@H]2O[C@H](CO)[C@@H](O)[C@@H]2O)c(=S)[nH]c1=O,MRC-5,Kanno-Kohmura (TK-),>266.3 µM
COC(O)[C@@H]1OC12[C@@H](CO[Si](C)(C)C(C)(C)C)O[C@@H](n1cc(C)c(=O)[nH]c1=O)[C@@H]2O[Si](C)(C)C(C)(C)C,MRC-5,,>20 µM
Nc1nc(=S)n([C@@H]2O[C@H](CO)[C@@H](O)[C@@H]2O)cc1/C=C/Br,MRC-5,Kanno-Kohmura (TK-),>213 µM
O=c1[nH]c(=O)n([C@H]2C[C@H](O)[C@@H](CO)O2)cc1I,HEL,YS-V10 H12,0.3 µg/mL
COC(=O)[C@@H]1O[C@]12[C@@H](CO[Si](C)(C)C(C)(C)C)O[C@@H](n1ccc(=O)[nH]c1=O)[C@@H]2O[Si](C)(C)C(C)(C)C,MRC-5,,>20 µM
CCCCCCc1cc2cn([C@H]3C[C@H](O)[C@@H](CO)O3)c(=O)nc2s1,HEL,OKA,0.08 µM
O=c1[nH]c(=S)n([C@@H]2O[C@H](CO)[C@@H](O)[C@@H]2O)cc1/C=C/Br,MRC-5,Kanno-Kohmura (TK-),>213 µM
OC[C@H]1O[C@H](c2cc(I)c(F)cc2F)C[C@@H]1O,HEL,(TK+)/OKA,>200 µM
CC(C)(C)[Si](C)(C)OC[C@H]1O[C@@H](n2ccc(=O)[nH]c2=O)[C@H](O[Si](C)(C)C(C)(C)C)[C@]12O[C@@H]2CO,MRC-5,,>194 µM
NC1=NC2C(C=CN2CC(CO)CCO)C(=O)N1,HEL,13 isolates,0.02 µM
Cc1cn([C@@H]2O[C@H](CO)[C@@H](O)[C@@H]2O)c(=S)nc1N,MRC-5,HOSEN (TK+),162.3 µM
OC[C@H]1O[C@H](c2ccc(F)cc2F)C[C@@H]1O,HEL,(TK-)/YS/R,>200 µM
CC(=O)OCCOCN1c2nc(Cc3ccccc3)[nH]c2C(N)=NS1(=O)=O,HEL,YS,>50 µg/mL
CCCCCCOCCCc1cc2cn([C@H]3C[C@H](O)[C@@H](CO)O3)c(=O)nc2o1,HEL,YS,8.1 µM
CCCc1cn([C@H]2C[C@H](O)[C@@H](CO)O2)c(=S)[nH]c1=O,MRC-5,CAQU (TK+),3.1 µM
Cc1c(Br)cc(Br)c2ncc(CSCc3cccc(C(F)(F)F)c3)n12,HEL,07/1 (TK-),>5 µg/mL
O=c1nc2oc(CCCCCCCCCI)cc2cn1[C@H]1C[C@H](O)[C@@H](CO)O1,HEL,YS,0.03 µM
Nc1ccn(C[C@@H](CO)OCP(=O)(O)O)c(=O)n1,HEL,YS (TK+),0.58 µM
CCCc1cn([C@H]2C[C@H](O)[C@@H](CO)O2)c(=S)nc1N,MRC-5,CAQU (TK+),>277.4 µM
COC(=O)/C=C1/[C@@H](O[Si](C)(C)C(C)(C)C)[C@H](n2ccc(=O)[nH]c2=O)O[C@@H]1CO[Si](C)(C)C(C)(C)C,MRC-5,,1.6 µM
CN1c2ccc([N+](=O)[O-])cc2C(C)(C)C12C=Cc1cc([N+](=O)[O-])ccc1O2,HEL,OKA (TK+),1 µM
CCc1cn([C@H]2C[C@H](O)[C@@H](CO)O2)c(=S)[nH]c1=O,MRC-5,HOSEN (TK+),34.6 µM
Cc1c(Br)cc(Br)c2ncc(CSCCc3ccccc3)n12,HEL,07/1 (TK-),3.6 µg/mL
O=c1[nH]c(=O)n([C@@H]2O[C@H](CO)[C@@H](O)[C@@H]2O)cc1/C=C/Br,HEL,YS-V10 H12,0.0005 µg/mL

A second listing of 4 rows from above:

structure,cells,strain or isolate,result
CN1c2ccc(Cl)cc2C(C)(C)C12C=Cc1cc([N+](=O)[O-])ccc1O2,HEL,07/1 (TK-),1.7 µM
CCCCCCCCCCc1cc2cn([C@H]3C[C@H](O)[C@@H](CO)O3)c(=O)nc2o1,HEL,OKA,0.02 µM
Cc1cc([C@H]2C[C@H](O)[C@@H](CO)O2)c(Cl)cc1F,HEL,(TK+)/OKA,>200 µM
CCCCCCCCC#Cc1c[nH]c(=O)[nH]c1=O,HEL,07/1,16 µM